Reference: PubChem BioAssay AID504761 (Drosophila RNAi Screening Center, 2011)

Assay: 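Genome-wide fly cell screen for genes dengue virus requires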 (primary screen)
Cells: D.Mel-2 cells from Drosophila
Knock-down reagent: long dsRNA against Drosophila genes
Challenge: infection with dengue virus type 2; dose and infection time not stated
Detection: 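Per well on two replicate plates, imaging gave the percent of cells positive for viral envelope protein, ranked by infection, and a nuclear count of cells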
Direction: infection score: higher = more virus-infected cells
Hit rule: 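Very low infection ranking in both replicate wells (chance probability at most 0.065), then a retest showing infection dropped 1.5-fold or more at p below 0.05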
Meaning of the calls: active = confirmed: knock-down lowers infection; inactive = not picked or not confirmed
In all, the deposit lists about 22,000 reagents; this is a random part of those with a known target gene and a result. Of all reagents, 116 (0.52%) were called active. 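Calls depend on retest data that are not deposited; infection was ranked per plate without normalising between plates; the unit of the infection score is not given.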 A plus sign joins genes that one reagent is predicted to hit. Further read-outs or replicates are left out here. No sequences are given here. Not stated in the record: the amount of reagent, the time to read-out.

With mGluR (metabotropic Glutamate Receptor) [DRSC17215], what was measured?
infection score, replicate 1: 13; Call: inactive

With Dhrs4 (Dehydrogenase/reductase 4) [DRSC09773], what does the deposit list?
infection score, replicate 1: 9.03; Call: inactive

With zetaCOP (Coat Protein (coatomer) zeta) [DRSC11412], how do the results read?
infection score, replicate 1: 0.27; Call: inactive

With CG9933 [DRSC03276], how do the results read?
infection score, replicate 1: 5.71; Call: inactive

With CG9933 [DRSC29443], what does the deposit list?
infection score, replicate 1: 13.4; Call: inactive

What did the screen give for Muc96D (Mucin 96D) [DRSC23213]?
infection score, replicate 1: 1.09; Call: inactive

How did the screen score Muc96D (Mucin 96D) [DRSC28500]?
infection score, replicate 1: 15.4; Call: inactive

How did the screen score CG17996 + Tsen2 [DRSC02650]?
infection score, replicate 1: 1.81; Call: inactive

With CG30419 [DRSC04208], how do the results read?
infection score, replicate 1: 5.14; Call: inactive

For CG30419 [DRSC04209], what does the deposit list?
infection score, replicate 1: 10; Call: inactive

With CG30419 [DRSC22519], what was measured?
infection score, replicate 1: 5.62; Call: inactive

What is on record for Cyp9c1 (Cytochrome P450 9c1) [DRSC04607]?
infection score, replicate 1: 4.05; Call: inactive
